Laboratory results from US9839642B2, “Beta-tetrazolyl-propionic acids as metallo-beta-lactamase inhibitors” (priority 2014, dated 2017).

The chains behind the UniProt entries cited, without tags or fusion partners. Residues count along the entry.
UniProt P52699, 19-246 limits assumed: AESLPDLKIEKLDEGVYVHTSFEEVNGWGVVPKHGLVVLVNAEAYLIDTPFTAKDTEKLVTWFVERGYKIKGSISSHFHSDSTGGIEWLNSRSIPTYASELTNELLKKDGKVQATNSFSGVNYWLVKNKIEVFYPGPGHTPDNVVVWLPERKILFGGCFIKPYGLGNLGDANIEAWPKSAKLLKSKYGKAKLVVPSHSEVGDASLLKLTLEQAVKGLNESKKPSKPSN
UniProt C7C422, 29-270 limits assumed: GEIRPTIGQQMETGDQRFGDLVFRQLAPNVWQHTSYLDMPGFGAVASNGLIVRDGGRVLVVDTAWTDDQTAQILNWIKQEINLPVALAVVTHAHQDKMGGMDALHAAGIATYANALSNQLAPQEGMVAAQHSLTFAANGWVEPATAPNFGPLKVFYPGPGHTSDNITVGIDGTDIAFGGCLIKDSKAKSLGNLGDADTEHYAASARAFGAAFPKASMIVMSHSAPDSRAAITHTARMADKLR

Assays:
[1] = target: IMP-1 (Serratia marcescens, UniProt P52699); test: Enzyme activity: determination of IC50, fluorescence assay with CCF2-FA substrate; format: biochemical; conditions: read-out: IMP1 IC50; enzyme 2 pM, CCF2-FA 1.25 μM, 2 hours at 25° C.
Procedure: (§1) Enzyme Activity: Determination of IC50
(§2) The Class B enzyme activities were measured in the presence of a compound of the EXAMPLES as a test inhibitor in a fluorescence assay against a commercially available substrate consisting of a cephalosporin core linking 7-hydroxycoumarin to fluorescein (CCF2-FA; Life Technologies, Grand Island, N.Y.). The enzyme (NDM-1, IMP-1 or VIM-1) and the substrate were diluted in 100 mM KH2PO4 buffer (pH 7) containing 0.005% Tween-20 and 10 μM ZnSO4. In the assay, the final concentration of enzyme was 1 pM, 2 pM and 30 pM for NDM-1, IMP-1 and VIM-1, respectively, and the final concentration of CCF2-FA was 1.25 μM. The test inhibitor was dissolved in DMSO and diluted 1:50 in the assay, resulting in a final concentration range of 20 μM to 0.00063 μM. In a 384-well microplate, the test inhibitor was incubated with the metallo-β-lactamase enzyme and the substrate for 2 hours at 25° C. Fluorescence at 460 nm following excitation at 405 nm was measured. The IC50 value was determined from semi-logarithmic plots of enzyme inhibition versus inhibitor concentration, with a curve generated using a 4-parameter fit.

[2] = target: NDM-1 (Klebsiella pneumoniae, UniProt C7C422); test: as above; format: biochemical; conditions: read-out: NDM1 IC50; enzyme 1 pM, CCF2-FA 1.25 μM, 2 hours at 25° C.
Procedure: as §1, §2

[3] = target: VIM-1 (Pseudomonas aeruginosa, UniProt A0A0F7KYQ8); test: as above; format: biochemical; conditions: read-out: VIM1 IC50; enzyme 30 pM, CCF2-FA 1.25 μM, 2 hours at 25° C.
Procedure: as §1, §2

[4] = test system: Escherichia coli expressing NDM-1 (CLB30016); test: Antibiotic potentiation activity: synergistic concentration (MITC95) with imipenem, growth by OD600; format: cell-based; conditions: 95% inhibition of bacterial growth, strain CLB30016
Procedure: (§3) Antibiotic Potentiation Activity: Determination of Synergistic Concentration
(§4) The bacterial strains tested included the clinical strains Escherichia coli expressing NDM-1 (CLB30005, CLB30016), Serratia marcescens expressing IMP-1 (CL5741), and Klebsiella pneumoniae expressing VIM-1 (IHMA599644). Inhibitor activity was measured in the presence and absence of imipenem or ceftazidime in a 384-well microplate.
(§5) The clinical strains CLB30016, CL5741, and IHMA599644 were grown on trypticase soy agar containing 5% sheep's blood. The clinical strain CLB30005 was grown on Mueller Hinton broth agar containing 8 μg/ml imipenem. The bacteria on agar plates were incubated overnight at 35° C. with ambient humidity (achieved from an open pan of water inside the incubator). The following day, individual colonies from each clinical strain were picked and resuspended in 5 ml saline to attain an OD600 of 0.14, 0.11, 0.15 and 0.13, for CLB30005, CLB30016, CL5741 and IHMA599644, respectively. These were further diluted 1:100 into 1.1×CAMHB and used to inoculate the test wells as described below.
(§6) Imipenem in 10 mM 3-(N-morpholino)propanesulfonic acid (MOPS, pH 7) was stored in single use aliquots at −80° C. Test inhibitors were dissolved in DMSO and diluted 1:50 in the assay, resulting in a final concentration range of 200 μM to 0.195 μM. On the day of the assay, 4 μl of antibiotic was added to 45 μl of bacteria followed by 1 μl of test compound and mixed by pipetting and with an orbital shaker. The concentration of antibiotic used in the assay was 1 μg/ml or 4 μg/ml. […] At the end of the incubation, absorbance was determined using a spectrophotometer. The synergistic concentration of MBLI was determined by identifying the lowest concentration of test compound in the presence of a given concentration of antibiotic that was required to inhibit 95% of the growth of the bacteria. […]
(§7) Representative compounds of the present invention display a synergistic effect. For example, representative compounds of EXAMPLES 1-456 were determined to restore susceptibility to imipenem at concentrations of 200 μM or less.

[5] = test system: Klebsiella pneumoniae expressing VIM-1 (IHMA599644); test: as above; format: cell-based; conditions: 95% inhibition of bacterial growth, strain IHMA599644
Procedure: as §3, §4, §5, §6, §7

[6] = test system: Serratia marcescens expressing IMP-1 (CL5741); test: as above; format: cell-based; conditions: 95% inhibition of bacterial growth, strain CL5741
Procedure: as §3, §4, §5, §6, §7

CCC[C@H](C(=O)O)[C@H](Cc1ccc(-c2ccc(CO)cc2)cn1)c1nnn[nH]1
IC50 [1]: 3.2 µM
IC50 [2]: 0.12 µM
IC50 [3]: 0.11 µM
NDM1 EC30016 MITC95 [4]: 18.8 µM
VIM1 KP599644 MITC95 [5]: 200 µM
IMP1 SM5741 MITC95 [6]: 150 µM
